Test system: HBV wild-type strain ayw1
Assay: Primary anti-HBV assay in HepG2 2.2.15 cells (qPCR of HBV DNA)
Settings: for SI50: CC50/EC50; for SI90: selectivity index at EC90

Compound: CC(C)C[C@](C)(N)COc1ccc(-c2ccnc(C(F)F)c2)nc1C(F)F [Compound 1, (S)-1-((2′,6-bis(difluoromethyl)-[2,4′-bipyridin]-5-yl)oxy)-2,4-dimethylpentan-2-amine]
- SI50: 5
- SI90: <1

Compound: C=C1[C@H](CO)[C@@H](O)C[C@@H]1n1cnc2c(=O)[nH]c(N)nc21 [Entecavir]
- SI50: >2,273
- SI90: 1

Reference: US11730723B2, “Compounds and methods for treating viral infections” (priority 2020, dated 2023)
